Results of unrelated studies side by side (data: NIAID ChemDB).

Shared fields: toxicity to cultured cells; cells: ATH8; read-out: CC50

CCn is the concentration with n% toxicity to the cells. Conditions beyond the fields shown may differ between rows. Blank or dashed fields: not listed here.

compound	method	result
O=c1ccn([C@@H]2S[C@H](CO)C[C@@H]2F)c(=O)[nH]1	-	>80 µM
Nc1nc2c(ncn2[C@H]2C=C[C@@H](CO)C2)c(=O)[nH]1	-	35 µg/mL
Nc1ccn([C@H]2C=C[C@@H](CO)O2)c(=O)n1	-	30 µM
COC(=O)[C@H](C)NP(=O)(OCC=C=Cn1cnc2c(=O)[nH]cnc21)Oc1ccccc1	-	≥10 µM
OC[C@H]1C[C@@H](n2cnc3c(F)ncnc32)CO1	-	>100 µM
O=c1ccn([C@H]2C[C@H](F)[C@@H](CO)S2)c(=O)[nH]1	-	>80 µM
Nc1ccn([C@@H]2O[C@H](CO)C3OC32)c(=O)n1	-	>5 µM
O=C1C=CC(=C(c2ccc(O)cc2)c2ccc(O)cc2)C=C1	-	<10 µg/mL
Nc1ccn([C@H]2C[C@H](F)[C@@H](CO)S2)c(=O)n1	-	>80 µM
Cc1cc(CCCCCCCOc2ccc(C3=NCCO3)s2)on1	-	35 µM
Nc1nc2c(ncn2C2CC(CO)C2)c(=O)[nH]1	-	~75 µM
Nc1ncc2ncn([C@H]3CO[C@@H](CO)C3)c2n1	-	>100 µM
Nc1ncnc2c1ncn2[C@H]1CC[C@@H](CO)O1	-	>200 µM
Nc1ccn([C@@H]2S[C@H](CO)C[C@@H]2F)c(=O)n1	-	>80 µM
CNc1ncnc2c1ncn2[C@H]1CO[C@@H](CO)C1	-	>100 µM
Nc1ncnc2c1ncn2[C@@H]1O[C@H](CO)C[C@@H]1F	-	>200 µM
Cc1cn([C@H]2C[C@H](N=[N+]=[N-])[C@@H](CO)O2)c(=O)[nH]c1=S	-	>50 µM
O=c1ccn([C@H]2C[C@@H](F)[C@@H](CO)S2)c(=O)[nH]1	-	>80 µM
NCCOP(=O)(O)OP(=O)(O)OC[C@@H]1CC[C@H](n2ccc(N)nc2=O)O1	-	>100 µM
Nc1ncnc2c1ncn2[C@H]1CC[C@@H](CO)O1	trypan blue	>5 µM

2 of the rows above, restated:

compound	method	result
OC[C@H]1C[C@@H](n2cnc3c(F)ncnc32)CO1	-	>100 µM
Nc1ncnc2c1ncn2[C@H]1CC[C@@H](CO)O1	-	>200 µM